Target: human voltage-gated sodium channel Nav1.3 (human), Q9NY46
Test: cell-based or functional assay

Binder | IWQ Use Nav1.3 (µM); IC50 of peak inward current, IonWorks Quattro [µM] | IWQ Use Nav1.3 (µM) (IC50, IonWorks Quattro population patch clamp) | IWQ Use Nav1.3 [µM] | IWQ Use Nav1.3 (µM), IC50 of peak inward current [µM] | IC50, IWQ Use Nav1.3 [nM] | Nav1.3 Use IC50 (PatchXpress electrophysiology) [µM]
DCLGAFRKCIPENDKCCRPNLVCSRTHKWCKYVF (modifications not checked) [[Ala5;Phe6;Glu12]GpTx-1(1-34)] | 0.2 | – | – | – | – | –
DCLGALRKCIPENDKCCRPNLVCSRTHKWCKYVF (modifications not checked) [[Ala5;Leu6;Glu12]GpTx-1(1-34)] | – | 0.58 | – | – | – | –
DALGFMRKCIPDNDKCARPNLVCSRTHKWCKYVF (modifications not checked) [[Ala2,17]GpTx-1(1-34)] | 0.79 | – | – | – | – | –
DCRGFMRKCIPDNDKCCRPNLVCSRTHKWCKYVF (modifications not checked) [[Arg3]GpTx-1(1-34)] | – | – | 0.05 | – | – | –
DCLGALRKCIPDNDKCCRPNLVCSRTHKWCKYVF (modifications not checked) [[D-Ala5;Leu6]GpTx-1(1-34)] | – | – | – | 11.5 | – | –
DCLGAFRKCIPDNDKCCRPNLVCSRTHKWCKYVF (modifications not checked) [[D-Ala5;Phe6]GpTx-1(1-34)] | – | – | 2.7 | – | – | –
DCLGFMRKCIPDNDKCCRPNLVCSRTHDWCKYVF (modifications not checked) [[Asp28]GpTx-1(1-34)] | – | – | – | – | 770 | –
DCLGMFRKCIPDNDKCCRPNLVCSRTHKWCKYVF (modifications not checked) [[Met5;Phe6]GpTx-1(1-34)] | – | – | 0.11 | – | – | –
DCAGFMRKCIPDNDKCCRPNLVCSRTHKWCKYVF (modifications not checked) [[Ala3]GpTx-1(1-34)] | – | – | 0.1 | – | – | –
DCLGVFRKCIPDNDKCCRPNLVCSRTHKWCKYVF (modifications not checked) [[Val5;Phe6]GpTx-1(1-34)] | – | – | – | 0.099 | – | –
DCQGFMRKCIPDNDKCCRPNLVCSRTHKWCKYVF (modifications not checked) [[Gln3]GpTx-1(1-34)] | – | – | 0.24 | – | – | –
DCLGAFRKCIPDNDKCCRPNLVCSRTHKWCKYVF (modifications not checked) [[Ala5;Phe6]GpTx-1(1-34)] | 0.05 | – | – | – | – | 0.022
DCLGSFRKCIPDNDKCCRPNLVCSRTHKWCKYVF (modifications not checked) [[Ser5;Phe6]GpTx-1(1-34)] | – | – | – | 1.7 | – | –
DCEGFMRKCIPDNDKCCRPNLVCSRTHKWCKYVF (modifications not checked) [[Glu3]GpTx-1(1-34)] | – | – | 0.83 | – | – | –
TCLGFMRKCIPDNDKCCRPNLVCSRTHKWCKYVF (modifications not checked) [[Thr1]GpTx-1(1-34)] | – | – | 0.07 | – | – | –
DCLGLFRKCIPDNDKCCRPNLVCSRTHKWCKYVF (modifications not checked) [[Leu5;Phe6]GpTx-1(1-34)] | – | – | 0.22 | – | – | –
DCLGMLRKCIPDNDKCCRPNLVCSRTHKWCKYVF (modifications not checked) [[Met5;Leu6]GpTx-1(1-34)] | 0.24 | – | – | – | – | –

Target: human voltage-gated sodium channel Nav1.5 (human), Q14524
Test: cell-based or functional assay

Binder | IWQ Use Nav1.5 (µM); IC50 of peak inward current, IonWorks Quattro [µM] | Nav1.5 Use IC50 (PatchXpress electrophysiology) [µM] | IWQ Use Nav1.5 (µM) (IC50, IonWorks Quattro population patch clamp) | Nav1.5 Use IC50 (µM), PatchXpress electrophysiology [µM] | IWQ Use Nav1.5 [µM] | IWQ Use Nav1.5 (µM), IC50 of peak inward current [µM] | IC50, IWQ Use Nav1.5 [nM]
DCLGAFRKCIPENDKCCRPNLVCSRTHKWCKYVF (modifications not checked) [[Ala5;Phe6;Glu12]GpTx-1(1-34)] | 45 | > 10 | – | – | – | – | –
DCLGALRKCIPENDKCCRPNLVCSRTHKWCKYVF (modifications not checked) [[Ala5;Leu6;Glu12]GpTx-1(1-34)] | – | – | > 50 | > 10 | – | – | –
DALGFMRKCIPDNDKCARPNLVCSRTHKWCKYVF (modifications not checked) [[Ala2,17]GpTx-1(1-34)] | 18.9 | – | – | – | – | – | –
DCRGFMRKCIPDNDKCCRPNLVCSRTHKWCKYVF (modifications not checked) [[Arg3]GpTx-1(1-34)] | – | – | – | – | 8.45 | – | –
DCLGALRKCIPDNDKCCRPNLVCSRTHKWCKYVF (modifications not checked) [[D-Ala5;Leu6]GpTx-1(1-34)] | – | – | – | – | – | 7.1 | –
DCLGAFRKCIPDNDKCCRPNLVCSRTHKWCKYVF (modifications not checked) [[D-Ala5;Phe6]GpTx-1(1-34)] | – | – | – | – | 13.1 | – | –
DCLGFMRKCIPDNDKCCRPNLVCSRTHDWCKYVF (modifications not checked) [[Asp28]GpTx-1(1-34)] | – | > 10 | – | – | – | – | 37900
DCLGMFRKCIPDNDKCCRPNLVCSRTHKWCKYVF (modifications not checked) [[Met5;Phe6]GpTx-1(1-34)] | – | – | – | – | 13.3 | – | –
DCAGFMRKCIPDNDKCCRPNLVCSRTHKWCKYVF (modifications not checked) [[Ala3]GpTx-1(1-34)] | – | > 10 | – | – | 19 | – | –
DCLGVFRKCIPDNDKCCRPNLVCSRTHKWCKYVF (modifications not checked) [[Val5;Phe6]GpTx-1(1-34)] | – | – | – | – | – | 9.4 | –
DCQGFMRKCIPDNDKCCRPNLVCSRTHKWCKYVF (modifications not checked) [[Gln3]GpTx-1(1-34)] | – | – | – | – | 16.4 | – | –
DCLGAFRKCIPDNDKCCRPNLVCSRTHKWCKYVF (modifications not checked) [[Ala5;Phe6]GpTx-1(1-34)] | 5 | > 10 | – | – | – | – | –
DCLGSFRKCIPDNDKCCRPNLVCSRTHKWCKYVF (modifications not checked) [[Ser5;Phe6]GpTx-1(1-34)] | – | > 10 | – | – | – | 11.9 | –
DCEGFMRKCIPDNDKCCRPNLVCSRTHKWCKYVF (modifications not checked) [[Glu3]GpTx-1(1-34)] | – | > 10 | – | – | 10.5 | – | –
TCLGFMRKCIPDNDKCCRPNLVCSRTHKWCKYVF (modifications not checked) [[Thr1]GpTx-1(1-34)] | – | – | – | – | 9.21 | – | –
DCLGLFRKCIPDNDKCCRPNLVCSRTHKWCKYVF (modifications not checked) [[Leu5;Phe6]GpTx-1(1-34)] | – | – | – | – | 20.1 | – | –
DCLGMLRKCIPDNDKCCRPNLVCSRTHKWCKYVF (modifications not checked) [[Met5;Leu6]GpTx-1(1-34)] | > 5 | > 10 | – | – | – | – | –

Target: human voltage-gated sodium channel Nav1.7 (human), Q15858
Test: cell-based or functional assay

Binder | IWQ Use Nav1.7 (µM); IC50 of peak inward current, IonWorks Quattro [µM] | Nav1.7 Use IC50 (PatchXpress electrophysiology) [µM] | IWQ Use Nav1.7 (µM) (IC50, IonWorks Quattro population patch clamp) | Nav1.7 Use IC50 (µM), PatchXpress electrophysiology [µM] | IWQ Use Nav1.7 [µM] | IWQ Use Nav1.7 (µM), IC50 of peak inward current [µM] | IC50, IWQ Use Nav1.7 [nM]
DCLGAFRKCIPENDKCCRPNLVCSRTHKWCKYVF (modifications not checked) [[Ala5;Phe6;Glu12]GpTx-1(1-34)] | 0.61 | 0.028 | – | – | – | – | –
DCLGALRKCIPENDKCCRPNLVCSRTHKWCKYVF (modifications not checked) [[Ala5;Leu6;Glu12]GpTx-1(1-34)] | – | – | 0.35 | 0.021 | – | – | –
DALGFMRKCIPDNDKCARPNLVCSRTHKWCKYVF (modifications not checked) [[Ala2,17]GpTx-1(1-34)] | 2.45 | – | – | – | – | – | –
DCRGFMRKCIPDNDKCCRPNLVCSRTHKWCKYVF (modifications not checked) [[Arg3]GpTx-1(1-34)] | – | – | – | – | 0.03 | – | –
DCLGALRKCIPDNDKCCRPNLVCSRTHKWCKYVF (modifications not checked) [[D-Ala5;Leu6]GpTx-1(1-34)] | – | – | – | – | – | 10.7 | –
DCLGAFRKCIPDNDKCCRPNLVCSRTHKWCKYVF (modifications not checked) [[D-Ala5;Phe6]GpTx-1(1-34)] | – | – | – | – | 2.1 | – | –
DCLGFMRKCIPDNDKCCRPNLVCSRTHDWCKYVF (modifications not checked) [[Asp28]GpTx-1(1-34)] | – | 0.015 | – | – | – | – | 730
DCLGMFRKCIPDNDKCCRPNLVCSRTHKWCKYVF (modifications not checked) [[Met5;Phe6]GpTx-1(1-34)] | – | – | – | – | 0.043 | – | –
DCAGFMRKCIPDNDKCCRPNLVCSRTHKWCKYVF (modifications not checked) [[Ala3]GpTx-1(1-34)] | – | 0.012 | – | – | 0.51 | – | –
DCLGVFRKCIPDNDKCCRPNLVCSRTHKWCKYVF (modifications not checked) [[Val5;Phe6]GpTx-1(1-34)] | – | – | – | – | – | 0.12 | –
DCQGFMRKCIPDNDKCCRPNLVCSRTHKWCKYVF (modifications not checked) [[Gln3]GpTx-1(1-34)] | – | – | – | – | 0.25 | – | –
DCLGAFRKCIPDNDKCCRPNLVCSRTHKWCKYVF (modifications not checked) [[Ala5;Phe6]GpTx-1(1-34)] | 0.07 | 0.012 | – | – | – | – | –
DCLGSFRKCIPDNDKCCRPNLVCSRTHKWCKYVF (modifications not checked) [[Ser5;Phe6]GpTx-1(1-34)] | – | 0.024 | – | – | – | 0.76 | –
DCEGFMRKCIPDNDKCCRPNLVCSRTHKWCKYVF (modifications not checked) [[Glu3]GpTx-1(1-34)] | – | 0.041 | – | – | 0.67 | – | –
TCLGFMRKCIPDNDKCCRPNLVCSRTHKWCKYVF (modifications not checked) [[Thr1]GpTx-1(1-34)] | – | – | – | – | 0.11 | – | –
DCLGLFRKCIPDNDKCCRPNLVCSRTHKWCKYVF (modifications not checked) [[Leu5;Phe6]GpTx-1(1-34)] | – | – | – | – | 0.057 | – | –
DCLGMLRKCIPDNDKCCRPNLVCSRTHKWCKYVF (modifications not checked) [[Met5;Leu6]GpTx-1(1-34)] | 0.069 | 0.27 | – | – | – | – | –
